Experimental data taken from patent publication US20080003190A1, “Antibacterial botanicals” (priority 2006, published 2008).

Assay: Polyphenol test: Ferric Chloride reaction
Design: key: (0), denotes no reaction; positive signs (+, ++, +++) denote increasing strength of Ferric Chloride reaction as measured by a colorimetric score; positive signs (+, ++, +++) denote increasing strength of Ferric Chloride reaction as measured by a colorimetric score; positive signs (+, ++, +++) denote increasing strength of Ferric Chloride reaction as measured by a colorimetric score
Settings: 50 uL extract + 50 uL 10% aqueous ferric chloride, 96-well dish; extract strength and solvent as in label

## O=C(O)/C=C/c1ccc(O)c(O)c1 [Caffeic acid (1%) in 70% ethanol, Caffeic acid]
  Ferric Chloride reaction, colorimetric score: Caffeic acid (1%) in 70% ethanol ((+++)

## O=C(O)c1cc(O)c(O)c(O)c1 [Gallic acid (1%) in 70% ethanol, Gallic acid]
  Ferric Chloride reaction, colorimetric score: Gallic acid (1%) in 70% ethanol (+++)
